Human monoclonal antibodies against the spike receptor-binding domain (heavy:light variable regions). IC50 against pseudoviruses bearing the spike of naturally observed variants; lower = stronger; >10 µg/ml means not reached at the top dose. No active / inactive call. The stated detection limit is 0.0005 µg/ml; values near or below 0.001 µg/ml lie at the floor of the assay.
Experiments:
Experiment in all cases: pseudovirus neutralization IC50; higher = weaker neutralization
[1] = target: SARS-CoV-2 Omicron BA.1 spike pseudovirus
Method: (§1)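 Single-round VSV luciferase pseudovirus mixed with antibody dilutions for 1 h and put on Huh-7 cells for about a day; IC50 from the dose curve.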

[2] = target: SARS-CoV-2 Omicron BA.2 spike pseudovirus
Method: as §1

[3] = target: SARS-CoV-2 Omicron BA.2.75 spike pseudovirus
Method: as §1

[4] = target: SARS-CoV-2 Omicron BA.5 spike pseudovirus
Method: as §1

[5] = target: SARS-CoV-2 Omicron BQ.1.1 spike pseudovirus
Method: as §1

[6] = target: SARS-CoV-2 Omicron XBB spike pseudovirus
Method: as §1

[7] = target: SARS-CoV-2 early D614G spike pseudovirus
Method: as §1

| Binder | pseudovirus neutralization IC50 [1] [mg/L] | pseudovirus neutralization IC50 [2] [mg/L] | pseudovirus neutralization IC50 [3] [mg/L] | pseudovirus neutralization IC50 [4] [mg/L] | pseudovirus neutralization IC50 [5] [mg/L] | pseudovirus neutralization IC50 [6] [mg/L] | pseudovirus neutralization IC50 [7] [mg/L] |
| --- | --- | --- | --- | --- | --- | --- | --- |
| BD56-021 (protein) chain 1: EVQLVESGGGSVKPGTSLRVSCAASGFTFDDYAMNWVRQRPGKGLEWVASISWHSVSRDYADSVKGRFTISRDNAKNSLFLQMNSLRPEDTAFYYCAKSRGYETLTGGDYFDSWGQGTLVTVSS chain 2: EIVLTQSPGSLSLSPGESATLSCRASQTVNNNFLAWYQQKPGQAPRLLIYGASSRATGIPDRFSGSGSGTDFTLTISRLEPGDFAVYYCQQYGNSPSITFGQGTRLDIK | 0.00129 | 0.0008 | 0.00192 | 0.00122 | > 10 | > 10 | 0.001 |
| BD56-016 (protein) chain 1: EVQLVESGGGLVQPGGSLRLSCVASGFTFSSYWMHWVRQAPGKGLVWVSRIHPDGTFTSYAESVKGRFSISRDNAKNTLYLQMNSLRAEDTALYYCARDYDILTNYYSADPDVFDIWGQGTMVTVSS chain 2: DIVMTQSPDSLPVSLGERATINCKSSQSILYSSNNKNYLAWYQQKPGQPPKLLIYWASTRESGVPDRFSGSGSGTEFTLTISTLQAEDVAVYYCQQYYNPPYTFGQGTKLEIK | 0.00438 | 0.00388 | 0.00485 | 0.00277 | > 10 | > 10 | 0.0014 |
| BD57-099 (protein) chain 1: EVQLVESGGGLVQPGRSLRLSCAASGFTFDDYAMHWVRQAPGKGLEWVSGISWNGGIIGYTDSAKGRFTISRDNAKNSLYLQMISLRAEDTAFYYCAKDLYYHDSIGYDAFDIWGQGALVTVSS chain 2: QSALTQPASVSGSPGQSITISCTGTSSDVGGYNYVSWYQQHSGKAPKLMMFDVTNRPSGVSNRFSGSKSGNTASLTISGLQAEDEADYYCSSYTSSSSVVFGGGTKLTVL | 0.21 | 0.169 | 0.131 | 2.8 | > 10 | > 10 | 0.172 |
| BD56-013 (protein) chain 1: QVQLVQSGTEVKKPGASVKVSCKASGYTFTTFGISWVRQAPGQGLEWMGWTSPNNDKTRYAQKLQGRVSMTTDTPASTAYLELRSLRSDDTAVYYCARDNRGGNDFLDYWGQGTLVTVSS chain 2: DIQMTQSPSTLSASVGDRVTITCRASQSISPWLAWYQQKPGKAPKLLIYRASSLESGVPSRFSGSGSGTEFTLTISSLQPDDFATYHCHQYNTYPYTFGQGTKLDIK | > 10 | > 10 | > 10 | > 10 | > 10 | > 10 | 1.52 |
| BD56-014 (protein) chain 1: QVQLQESGPGLVKSSETLSLTCTVSGASISVYYWSWIRQPPGKGLEWIGYIYKSDKTNYNPSLKSRVTILEGPSRNQFSLKLNSVTAADTAVYYCARHGWTDTLTGYPYDAFDSWGQGTLVTVSS chain 2: EIVMTQSPATLSASPGERVTLSCRASQSVSSDLAWYQQKPGQAPRLLIYDASSRATGFPARFSGSGSGTEFTLTVSSLQSEDFVVYYCQQYTEWPYTFGQGTKLEIK | 0.159 | 0.258 | 0.227 | > 10 | > 10 | > 10 | 0.00434 |
| BD56-006 (protein) chain 1: EVQLVESGGGLVRPGGSLRVSCAASEIIVSRNYMSWVRQAPGKGLEWVSLLYSGGSTFYADSVKGRFTISRDNSKNTLYLQMSSLTAEDTAVYYCARGGRGGPDAFDSWGQGTLVTVSS chain 2: IQLTQSPSSLSASVGDRVTITCRASQGIGNYLAWYLQKPGKAPKLLIYAASTLQSGVPSRFSGSGSGTDFTLTISSLQPEDFATYYCQLLDSYPPSTFGQGTKLEIK | 0.0145 | 0.0153 | > 10 | 0.0165 | > 10 | > 10 | 0.00633 |
| BG7-20 (protein) chain 1: QVQLVQSGAEVKKAGASVKVSCKASGYTFTSYDINWVRQASGQGLEWMGWMNPISGNTGYAQKFQGRVTMTRNTSITTAYMELSSLRSEDTAVYFCARGGRYCSSTTCYSGVGMDVWGQGTTVTVPS chain 2: QSVLTQPPSVSGAPGQRVTISCTGSSSNIGAGYDVHWYHQLPGTAPKFLIYGNSNRPSGVPDRFSGSKSGTSASLAITRLQAEDEADYYCQSYDSSLSGWVFGGGTKLTVL | > 10 | > 10 | > 10 | > 10 | > 10 | > 10 | 0.0025 |
| BD57-088 (protein) chain 1: QVQLVESGGGVVQPGRSLRLSCAASGFTFSSYAIHWVRQAPGKGLEWVAVISDDGVAKFYADSVKGRFTISRDNSKKTLYLQMNSLRAEDTAVYYCARDGERRTWVFDFWGQGTLVTVSS chain 2: DIQMTQSPSSLSASVGDRLTITCRASQSISSYVNWYQQKPGKAPKLLIYAASSLQSGVPSRFSGSGSGTDFTLTISSLQPEDFATYYCQQTYSTPPGTFGQGTKVEIQ | 5.87 | 4.97 | 5.38 | 4.64 | 9.34 | 6.25 | 0.877 |
| BD56-001 (protein) chain 1: EVQLVESGGGLVQPGGSLTLSCAASGLSVSRNYMIWVRQAPGKGLEWVSVIYSGGTTFYADSVKGRFTISRDNSKNTLFLQMNSLRAEDTAVYFCARDLGIAGAIDRWGQGTLVTVSS chain 2: DIQLTQSPSFLSASVGDRVTITCRASQGIGSYLAWYQQKPGKAPKLLIYAASTLQSGVPSRFSGSGSGAEFILTITSLQPEDFATYYCQELNSEYFTFGPGTKVEIK | 2.7 | 2.81 | 0.0896 | 2.57 | > 10 | > 10 | 0.0193 |
| BD57-093 (protein) chain 1: EVQLVESGGGVVQPGGSLRLSCVASGFMFEDYAMHWVRQVPGKGLEWVSVIDRDGGGTFYPDSVKGRFTVSRDNSKKSLYLQMSSLRTEDTAFYFCVKDVDIDISLVTVFDYWGQGTLVTVSS chain 2: DIQMTQSPSSLSASVGDRVTITCRASQSISTYLNWYQQKSGKAPKLLIYAASSLQSGVPSRFSGSGSGTDFTLTISSLQPEDFATYYCQQSYITPPLTFGGGTKVDLK | > 10 | > 10 | > 10 | > 10 | > 10 | > 10 | > 10 |
| BD56-005 (protein) chain 1: QVQLVQSGAEVRKPGASVKVSCKASGYIFTGYYIHWVRQAPGQGLEWMGWMNPNSGDTTYAQKFQGRVTMTRDTSINTANMELNRLRSDDTAVYYCFRGCGGDCYPDAEYFQHWGQGTLVTVSS chain 2: DIQMTQSPSSLSASVGDRVTITCRASQSINRYLNWYQQKPGKAPKLLIYAASSLQSGVPSRFSGSGSGTDFTLTINTLQPEDFATYYCQQSHSAPPLTFGGGTKVEIK | 0.0738 | 0.047 | 0.00229 | 0.173 | > 10 | > 10 | 0.0025 |
| BD56-015 (protein) chain 1: EVQLVESGGGLVQPGGSLRLSCAASEFIVSRNYMSWVRQAPGKGLEWVSVIYPGGSTFYADSVKGRFTISRDNSKNTLYLQMNSLRAEDTAVYFCARDFGDQYFDYWGPGTLLTVSS chain 2: EIVLTQSPGTLSLSPGDRATLSCRASQSVSSYLAWYQQKPGQAPRLLIYGASSRATGIPDRFSGSGSGTDFTLTISRLEPEDFAVYYCQQYGTSPRTFGQGTKLEIK | 0.0132 | 0.0111 | 0.594 | 0.0121 | > 10 | > 10 | 0.0235 |
